## Sequence variants of PSTVd loop 15 after infection

The measurements come from Wu et al. 2024 (doi:10.1371/journal.ppat.1012142).

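Three N. benthamiana plants were inoculated with the whole mutant pool. Samples came from the inoculated region at 5 days, the leaf margin at 10 and upper systemic leaves at 12.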

PSTVd intermediate strain, loop 15: wild type GGAAACCGCUACUAC, pool pattern GGAAACCGNNNNNNC; upper and lower strand joined, each 5' to 3', the first 7 letters being the upper strand, closing pairs included.

Values are reads per thousand in the sample; higher means more abundant, 0 means not found.
Each site shows the three plants.
"Pool" is the share in the plasmid pool used as inoculum, on the same scale.
The inoculated region was read from the minus strand, the other sites from the plus strand.
IR is the inoculated region, LM the leaf margin, Sys the systemic leaves.
Samples held 43,870 to 66,106 reads, so the smallest values rest on one or two reads.
Sequences that differ at fixed positions probably stem from PCR or sequencing errors, and defective variants can be carried along by functional ones.
Wild type was 33.9 per thousand in the pool and the most common sequence in every sample (inoculated region 202, 200, 159; leaf margin 724, 746, 710; systemic leaves 856, 883, 880).

sequence,pool,IR,LM,Sys
GGAAACCGCAAAGCC,0.288,0.147 0.129 0.114,0.0323 0.0445 0,0 0 0.0228
GGAAACCGCAAAGGC,0.144,0.0655 0.161 0.114,0 0 0,0.0161 0 0
GGAAACCGCAAAGUC,0.224,0 0.0964 0.0952,0 0 0.0401,0.0161 0 0
GGAAACCGCAAAUAC,0.208,0.295 0.386 0.228,0.0323 0.0445 0.100,0.0805 0.0908 0.0684
GGAAACCGCAAAUCC,0.176,0.0819 0.0643 0.0952,0 0 0,0 0 0
GGAAACCGCAAAUGC,0.112,0.0983 0.0643 0.0762,0.0162 2.05 0.0601,0 0 0
GGAAACCGCAAAUUC,0.192,0.278 0.161 0.324,0.0485 0.156 0.160,0.0322 0.0454 0.0684
GGAAACCGCAACAAC,0.176,0.147 0.209 0.0952,0 0 0.0200,0.0161 0.0151 0
GGAAACCGCAACACC,0.320,0.131 0.0964 0.0762,0.0162 0 0.0200,0 0 0
GGAAACCGCAACAGC,0.240,0.0328 0.0643 0.0762,0 0 0.0200,0 0 0
GGAAACCGCAACAUC,0.288,0.0819 0.129 0.0381,0.0162 0.0223 0,0 0 0
GGAAACCGCAACCAC,0.144,0.344 0.257 0.457,0.178 0.111 0.120,0.0161 0 0
GGAAACCGCAACCCC,0.112,0.131 0.112 0.133,0 0 0.0200,0 0 0
GGAAACCGCAACCGC,0.208,0.0491 0 0.152,0.0323 0 0.0601,0 0 0.0228
GGAAACCGCAACCUC,0.304,0.115 0.0964 0.0762,0 0 0,0.0161 0 0
GGAAACCGCAACGAC,0.352,0.0819 0.112 0.133,0 0 0.0401,0 0.0151 0
GGAAACCGCAACGCC,0.128,0.164 0.177 0.152,0.0162 0 0,0 0.0151 0
GGAAACCGCAACGGC,0.256,0.344 0.193 0.324,0.0323 0 0,0.0161 0 0
GGAAACCGCAACGUC,0.128,0.0491 0.0964 0.114,0.0323 0 0.0401,0.0161 0 0
GGAAACCGCAACUAC,0.224,0.475 0.530 0.781,0.162 0.156 0.180,0.161 0.0756 0.114
GGAAACCGCAACUCC,0.192,0.115 0.112 0.0762,0 0.0223 0.0200,0 0 0
GGAAACCGCAACUGC,0.256,0.164 0.0964 0.0381,0 1.98 0,0 0 0
GGAAACCGCAACUUC,0.192,0.377 0.321 0.343,0.113 0.0445 0.120,0 0.0454 0.0912
GGAAACCGCAAGAAC,0.208,0.311 0.257 0.267,0.0970 0.0668 0.180,0.0322 0.0605 0.0456
GGAAACCGCAAGACC,0.176,0.0819 0.0643 0.0190,0.0323 0 0.0200,0 0 0
GGAAACCGCAAGAGC,0.192,0.131 0.0803 0.152,0 0.0223 0.0200,0.0161 0 0
GGAAACCGCAAGAUC,0.160,0.278 0.337 0.248,0.0970 0.156 0.120,0.0966 0 0
GGAAACCGCAAGCAC,0.224,0.164 0.321 0.286,0.162 0.0891 0.220,0.0644 0 0.0228
GGAAACCGCAAGCCC,0.272,0.115 0.0482 0.0762,0.0323 0.0223 0.0601,0 0 0
GGAAACCGCAAGCGC,0.240,0.0983 0.0803 0.0952,0 0 0,0 0 0
GGAAACCGCAAGCUC,0.176,0.0655 0.0964 0.0952,0 0 0.0200,0 0 0
GGAAACCGCAAGGAC,0.192,0.197 0.369 0.343,0.146 0.156 0.200,0.0161 0.0454 0.0456
GGAAACCGCAAGGCC,0.176,0.0819 0.193 0.133,0.0162 0 0,0 0 0
GGAAACCGCAAGGGC,0.240,0.0983 0.129 0.0571,0.0162 0 0,0 0 0
GGAAACCGCAAGGUC,0.208,0.344 0.353 0.248,0.0162 0.0668 0.0601,0.0161 0.0151 0
GGAAACCGCAAGUAC,0.160,0.213 0.498 0.324,0.113 0.0668 0.0401,0.0322 0.0605 0.160
GGAAACCGCAAGUCC,0.256,0.246 0.225 0.381,0.146 0.0445 0.100,0.0483 0.0303 0.0684
GGAAACCGCAAGUGC,0.208,0.197 0.257 0.343,0.129 0.0668 0.100,0.0322 0.0756 0.0684
GGAAACCGCAAGUUC,0.304,0.311 0.353 0.419,0.113 0.0891 0.0200,0.0161 0.0454 0.0912
GGAAACCGCAAUAAC,0.240,0.0819 0.112 0.152,0.0162 0.0223 0.0200,0 0 0
GGAAACCGCAAUACC,0.176,0.131 0.129 0.152,0.0162 0 0.0200,0 0 0
GGAAACCGCAAUAGC,0.192,0.0983 0.112 0.0571,0.0162 0 0,0 0 0
GGAAACCGCAAUAUC,0.192,0.164 0.112 0.0762,0 0.0445 0.0200,0 0 0
GGAAACCGCAAUCAC,0.144,0.377 0.225 0.324,0.113 0.0891 0.0801,0.0805 0 0

Extract of 2 entries:

{"sequence": "GGAAACCGCAACGUC", "pool": "0.128", "IR": "0.0491 0.0964 0.114", "LM": "0.0323 0 0.0401", "Sys": "0.0161 0 0"}
{"sequence": "GGAAACCGCAAAGCC", "pool": "0.288", "IR": "0.147 0.129 0.114", "LM": "0.0323 0.0445 0", "Sys": "0 0 0.0228"}